Data as given in PubChem BioAssay AID1224833 (University of Georgia, 2016)
In all, the deposit lists about 12,000 reagents; below is a part drawn at random. In the full data, about 5,600 (46%) are marked active. 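Active calls cover z-scores past 1 in both directions, so they include lowered as well as raised rotavirus replication.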 Unmarked entries are inactive.

Test: 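Human genes whose knock-down alters rotavirus replication in monkey cells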 (primary screen)
System: monkey MA104 kidney cells
Knock-down reagent: siRNA pool against human genes, 50 nM
Duration: 48 h knock-down before infection; read 24 h after infection
Conditions: infection with rotavirus strain RV3 two days after transfection; infectious dose for this stage not given
Measured: 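z-score of rotavirus antigen signal per well, from a fluorescent immunoassay, relative to non-targeting control wells on the same plate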
Reading the numbers: z-score vs non-targeting control: higher = more rotavirus replication than with non-targeting control
Rule for the call: In these data the active calls have z-score vs non-targeting control at about -1 or lower, or at about 1 or higher
Meaning of the calls: active = z-score beyond 1 either way; inactive = z-score within 1 of zero

Gene,z-score vs non-targeting control
MCM10 (GeneID 55388),0.346
CYTH4 (GeneID 27128),-0.995
SYT11 (GeneID 23208),-1.48 (active)
CNOT12 (GeneID 85456),1 (active)
HS3ST3B1 (GeneID 9953),-2.83 (active)
SLC22A10 (GeneID 387775),-1.04 (active)
RPAP2 (GeneID 79871),0.607
PRR23B (GeneID 389151),-0.8
UQCR11 (GeneID 10975),-1.2 (active)
TRMT10B (GeneID 158234),-0.619
TAF2 (GeneID 6873),1.89 (active)
GOLGB1 (GeneID 2804),0.413
CHD1L (GeneID 9557),2.24 (active)
KLHL24 (GeneID 54800),0.743
ZNF507 (GeneID 22847),-1.69 (active)
MTBP (GeneID 27085),1.06 (active)
OR2M2 (GeneID 391194),0.185
PRTFDC1 (GeneID 56952),-0.532
BCL2L15 (GeneID 440603),-1.51 (active)
ATP6V1B1 (GeneID 525),0.832
SNU13 (GeneID 4809),-0.696
KLF13 (GeneID 51621),-1.25 (active)
XPO7 (GeneID 23039),1.06 (active)

Next part, starting with the last 5 of the part before.
Gene,z-score vs non-targeting control
BCL2L15 (GeneID 440603),-1.51 (active)
ATP6V1B1 (GeneID 525),0.832
SNU13 (GeneID 4809),-0.696
KLF13 (GeneID 51621),-1.25 (active)
XPO7 (GeneID 23039),1.06 (active)
GLDC (GeneID 2731),-0.901
HSD11B1L (GeneID 374875),2.78 (active)
ECPAS (GeneID 23392),1.53 (active)
KRT78 (GeneID 196374),1.16 (active)
CARD8 (GeneID 22900),0.448
C22orf42 (GeneID 150297),1.97 (active)
PCDHAC1 (GeneID 56135),-0.883
SSB (GeneID 6741),-0.337
ASAH2 (GeneID 56624),1.07 (active)
SLC22A24 (GeneID 283238),-1.14 (active)
NSG1 (GeneID 27065),0.315
IFNE (GeneID 338376),-0.0913
SNAPC3 (GeneID 6619),0.584
THOC7 (GeneID 80145),-1.23 (active)
EPHX3 (GeneID 79852),-0.8
TAL1 (GeneID 6886),0.472
RBMX (GeneID 27316),-0.477
MB21D2 (GeneID 151963),-0.832
RBM15 (GeneID 64783),-2.42 (active)
CHST1 (GeneID 8534),-0.863
SOX12 (GeneID 6666),-0.0535
KRT86 (GeneID 3892),-0.343
